PubChem BioAssay AID602233 (National Center for Advancing Translational Sciences (NCATS), 2012)
The entries are a selection whose mix differs from that of the whole data set. Some salts and complexes are drawn in separate pieces, as the source files them; their charges need not balance. Active and inactive are the calls of the source. Calls come from the whole dose curve; as a rule, active = well fitted inhibition curve with a large enough effect; inconclusive = small, poorly fitted or top-dose-only effect; inactive = no such curve, though single readings can be large or run the other way.

These compounds were tested against Phosphoglycerate kinase, glycosomal (Trypanosoma brucei brucei) (UniProt P07378) (assay: qHTS Assay to Find Inhibitors of Phosphoglycerate Kinase). Settings: PGK/GAPDH coupled, Kinase-Glo luminescence, 60 min; activity change, negative = inhibition: at 57.5 µM (top of the series).
Text: Several species of the Trypanosomatidae family of parasitic protozoans cause a spectrum of diseases throughout the tropical and subtropical world. Sleeping sickness, caused by two subspecies of Trypanosoma brucei, is endemic to areas of sub-Saharan Africa, while Chagas disease, a manifestation of Trypanosoma cruzi infection, is prevalent throughout Central and South America. In addition, many species of Leishmania are responsible for a range of cutaneous and visceral diseases, causing ulcers, destructive lesions and kalaazar, a lethal infection of the viscera. Collectively, these organisms infect 30 million people worldwide (~500 million live in endemic areas), and account for ~130,000 deaths annually. Given their debilitating and prevalent nature, trypanosomatid parasites impose a heavy medical, economic and social burden on entire populations, primarily in the developing world. The problem is further exacerbated by the fact that existing treatments have progressed little in the past 50 years, and current drugs show high toxicity and poor efficacy. […] Blood-stream stages of T. brucei are entirely dependent on glycolysis as a source of ATP, and the tricarboxylic acid cycle and oxidative phosphorylation are both repressed. Glycolysis in axenically cultured T. cruzi, representing the intracellular pathogenic stage, is also essential for these parasites. […] Previous studies have shown that the glycolytic enzyme, phosphoglycerate kinase (PGK), is a viable target for drugs to kill these parasites. […] NIH Molecular Libraries Probe Production Network [MLPCN] NIH Chemical Genomics Center [NCGC] MLPCN Grant: R03 MH093212 PI Name: Malcolm Walkinshaw, University of Edinburgh
3ul of substrate/PGK buffer (columns 1,2,5-48) are dispensed into Greiner white solid bottom 1536-well assay plates; columns 3-4 receive only TEA buffer as 0x PGK controls. Compounds are then transferred via Kalypsys pin tool equipped with 1536-pin array (10nl slotted pins, V&P Scientific, San Diego, CA). Following addition of compound, 1ul of GAPDH (100nM final concentration, all columns) is added to initiate the reaction (this upstream coupling enzyme is necessary for in-well production of PGK substrate, 1,3-bisphosphoglycerate (1,3-BPG), which is unstable and not commercially available). The plates are then incubated at room temperature for 60 minutes. Kinase-Glo Plus reagent is added (2ul) and plates incubated for 10 minutes, before being transferred to a ViewLux high-throughput CCD imager (PerkinElmer) wherein single end-point measurements of luminescence are acquired using a clear filter. All reagents are diluted in an assay buffer consisting of 100mM TEA (pH 7.6), 5mM MgCl2 and 0.01% Tween-20.
Note: nearly all actives have a fitted effect of over 60% in size.

| SMILES | activity change, negative = inhibition |
| --- | --- |
| CCN1CCC(Nc2cccc(F)c2)CC1 | inactive: -5.89% |
| Cc1ccccc1NC1(C#N)CCN(Cc2ccccc2)CC1 | inactive: -7.36% |
| Cn1c(=O)[nH]cc(N(CCCl)CCCl)c1=O | inactive: 3.66% |
| CN(C)c1ccc(C(=O)NCC2(N3CCCCC3)CCCCC2)cc1 | inactive: 2.51% |
| CC(C)(C)c1ccc(C(=O)NCC2(N3CCOCC3)CCCCC2)cc1 | inactive: -0.0533% |
| O=C(NCC1(N2CCCCC2)CCCCC1)c1ccco1 | inactive: -8.49% |
| Cc1ccccc1C(=O)NCC1(N(C)C)CCCCC1 | inactive |
| COc1cc(OC)cc(C(=O)NCC2(N3CCCCC3)CCCCC2)c1 | inactive: -1.39% |
| CC(=O)N(c1ccccc1)C1CCNCC1 | inactive: 1.32% |
| CN(C)C1(CNC(=O)c2ccc(C(C)(C)C)cc2)CCCCC1 | inactive |
| Cc1ccc(NC2(C#N)CCN(Cc3ccccc3)CC2)cc1 | inactive: -8.56% |
| Cc1ccc(Nc2c([N+](=O)[O-])cc([N+](=O)[O-])cc2[N+](=O)[O-])cc1 | inactive: -9.97% |
| Fc1ccccc1NC1CCN(Cc2ccccc2)CC1 | inactive: 4.95% |
| Cc1ccc(C(=O)NCC2(N3CCCCC3)CCCCC2)o1 | inactive: 4.43% |
| CCC(CO)(C(=O)OC1CN2CCC1CC2)c1ccccc1 (centres undefined) | inactive: -4.22% |
| COc1cccc(C(=O)N(c2cc(C)cc(C)c2)C2CCN(C(=O)OC(C)(C)C)CC2)c1 | inactive: -16.4% |
| COc1cc(OC)cc(C(=O)NCC2(N3CCOCC3)CCCCC2)c1 | inactive: 7.99% |
| COc1cc(C(=O)NCC2(N3CCOCC3)CCCCC2)cc(OC)c1OC | inactive: 8.72% |
| CN1CCC(Nc2ccc(Cl)cc2)CC1 | inactive: -0.816% |
| CN1CCC(Nc2ccc(F)c(Cl)c2)CC1 | inactive: -4.31% |
| CCOc1ncccc1C(=O)NCC1(N2CCOCC2)CCCCC1 | inactive |
| CCCOc1ccc(C(=O)NCC2(N(C)C)CCCCC2)cc1 | inactive: 7.44% |

| SMILES | activity change, negative = inhibition |
| --- | --- |
| O=C(O)C1(Nc2ccccc2)CCN(Cc2ccccc2)CC1 | inactive |
| CC(C)(C)OC(=O)N1CCC(Nc2ccccc2)CC1 | inactive: -9.73% |
| N/C(=N\O)c1c(N)no[n+]1[O-] | inactive: -1.83% |
| CCOC(=O)N1CCC(Nc2ccc(C)cc2)CC1 | inactive: 4.27% |
| O=C(O)c1cccc(Nc2c([N+](=O)[O-])cc([N+](=O)[O-])cc2[N+](=O)[O-])c1 | inactive: -16.3% |
| O=C(OC1CN2CCC1CC2)C1c2ccccc2C=Cc2ccccc21 (centres undefined) | inactive: -6.01% |
| CCc1cc(C(=O)NCC2(N3CCCCC3)CCCCC2)sc1C | inactive: -1.55% |
| O=C(NCC1(N2CCOCC2)CCCCC1)c1cc(Br)ccc1Cl | inactive |
| COc1cc(C(=O)NCC2(N3CCOCC3)CCCCC2)cc(OC)c1C | inactive: -7.89% |
| COc1ccc(C(=O)NCC2(N3CCOCC3)CCCCC2)cc1OC | inactive: 5.9% |
| O=C(NCC1(N2CCOCC2)CCCCC1)c1ccccc1 | inactive: -2.25% |
| Cc1cc(N(CCCl)CCCl)ccc1C=O | inactive: -3.13% |
| CCCN1CCC(Nc2cc(OC)cc(OC)c2)CC1 | inactive: 4.21% |
| c1ccc(CN2CCC(Nc3ccccc3)CC2)cc1 | inactive: 1.64% |
| CN(C)C1(CNC(=O)c2cccc(C#N)c2)CCCCC1 | inactive: 3.47% |
| CC(C)(C)OC(=O)N1CCC(N(C(=O)c2ccccc2)c2ccc(Cl)cc2)CC1 | inactive |
| O=C(NCC1(N2CCOCC2)CCCCC1)c1ccc([N+](=O)[O-])cc1 | inactive: 2.65% |
| O=C(NCC1(N2CCOCC2)CCCCC1)c1ccccc1[N+](=O)[O-] | inactive |
| N#Cc1ccc(C(=O)NCC2(N3CCCCC3)CCCCC2)cc1 | inactive: -7.31% |
| CCOC(=O)C(CC)C1=NC(C)(C)Cc2ccccc21.O=[N+]([O-])c1cc([N+](=O)[O-])c(O)c([N+](=O)[O-])c1 (centres undefined) | inactive: -0.235% |
| O=C(NCC1(N2CCCCC2)CCCCC1)c1cccc(C(F)(F)F)c1 | inactive: -3.21% |
| CCCOc1cccc(C(=O)NCC2(N3CCOCC3)CCCCC2)c1 | inactive |

| SMILES | activity change, negative = inhibition |
| --- | --- |
| O=[N+]([O-])c1cc([N+](=O)[O-])c(NCC2CCS(=O)(=O)C2)c([N+](=O)[O-])c1 (centres undefined) | inactive: 2.04% |
| CC(C)c1ccc(C(=O)NCC2(N3CCOCC3)CCCCC2)cc1 | inactive: -4.14% |
| COc1ccc(NC2CCN(C(=O)OC(C)(C)C)CC2)cc1 | inactive |
| CN1CCN(CCOC(=O)C(O)(c2ccccc2)c2ccccc2)CC1 | inactive |
| O=C(NCC1(N2CCOCC2)CCCCC1)c1cc(=O)[nH]c2ccccc12 | inactive: -0.959% |
| COc1cc(C(=O)NCC2(N3CCCCC3)CCCCC2)ccc1OC(F)F | inactive: 6.85% |
| O=C(NCC1(N2CCCCC2)CCCCC1)c1ccc(OC(F)F)cc1 | inactive: -6.73% |
| CCOc1ccc(C(=O)NCC2(N3CCOCC3)CCCCC2)cc1 | inactive: -4.84% |
| O=C(NCC1(N2CCCCC2)CCCCC1)c1cccc([N+](=O)[O-])c1 | inactive: 0.0313% |
| CSc1ccc(C(=O)NCC2(N3CCOCC3)CCCCC2)cc1 | inactive: -1.52% |
| N#CC1(Nc2ccccc2)CCN(CCc2ccccc2)CC1 | inactive: 9.82% |
| CCN1CCC(Nc2ccc(Cl)cc2)CC1 | inactive: 1.97% |
| COc1ccc2c(c1O)-c1c(O)c(OC)cc3c1[C@H](C2)[N+](C)(C)CC3.O=[N+]([O-])c1cc([N+](=O)[O-])c([O-])c([N+](=O)[O-])c1[O-] | inactive: -13.3% |
| O=C(NCC1(N2CCCCC2)CCCCC1)c1cncc(Br)c1 | inactive: -2.9% |
| CN1CCC(Nc2cccc(F)c2)CC1 | inactive: -1.13% |
| O=C(OC1CN2CCC1CC2)c1ccc([N+](=O)[O-])cc1 (centres undefined) | inactive: -1.07% |
| CCCOc1ccc(C(=O)NCC2(N(C)C)CCCCC2)cc1OC | inactive |
| O=C(NCC1(N2CCOCC2)CCCCC1)c1ccccc1Br | inactive: 0.137% |
| Cc1ccc(C(=O)NCC2(N(C)C)CCCCC2)o1 | inactive: -7.74% |
| CCCCOc1ccccc1C(=O)NCC1(N2CCOCC2)CCCCC1 | inactive: -3.4% |
